The data set concerns intracellular L. major amastigotes. The data set is classed as cell-based, Leishmania major. How it is done:
The assay is based on bioluminescence measurement of firefly luciferase, which catalyzes the formation of light from ATP and luciferin. The virulent luciferase-transgenic (Luc-tg) L. major strain containing a firefly luciferase reporter gene was maintained by continuous passage in female BALB/c mice and was grown in 96-well blood agar cultures at 27°C, 5% CO2, and 95% humidity. A luciferase-transgenic L. major strain was used to infect BMDM according to our recently established protocol. Briefly, BMDM numbers were adjusted to 2 × 10^5, cultured in 96-well plates and incubated for 4 h to allow adherence to the surface. The promastigote number was adjusted to 3 × 10^6 parasites per ml to achieve an infection rate of 1:15. Then, infection was made by discarding the supernatant of the cultured cells and replacing it with an equal volume of complete RPMI medium containing the promastigotes' suspension. After incubating the infected BMDM (37°C, 5% CO2) for 24 h to allow full differentiation of the promastigotes into amastigotes, the medium containing the extracellular parasites was removed and the wells were washed three times with the same RPMI medium. Five serial dilutions of each substance (1:5) in the same fresh RPMI medium were added to the infected BMDM in duplicate with the appropriate controls. After further 24 h of incubation at 37°C and 5% CO2, the infected BMDM were lysed with a luciferin-containing buffer (Britelite, PerkinElmer, Germany) and luminescence was measured with a luminescence plate reader, Victor X Light 2030 luminometer (PerkinElmer). The IC50 values of the compounds against intracellular amastigotes were calculated based on the intercept theorem, as previously described.

Our source for the SI amastigotes values is paper PMC4592236, “Pathogen- and Host-Directed Antileishmanial Effects Mediated by Polyhexanide (PHMB)” (PLoS Neglected Tropical Diseases, 2015).

SMILES strings stand for the structures. Read-outs that look alike come from different tables or passages of the source.

For the compound `N=C(N)c1ccc(OCCCCCOc2ccc(C(=N)N)cc2)cc1` [Pentamidine, pentamidine isothionate], the SI amastigotes was 20.
Regarding `C[C@@H]1[C@H](O)[C@@H](C)/C=C/C=C/C=C/C=C/C=C/C=C/C=C/[C@H](O[C@@H]2O[C@H](C)[C@@H](O)[C@H](N)[C@@H]2O)C[C@@H]2O[C@](O)(C[C@@H](O)C[C@@H](O)[C@H](O)CC[C@@H](O)C[C@@H](O)CC(=O)O[C@H]1C)C[C@H](O)[C@H]2C(=O)O` [Amphotericin B, amphotericin B], the SI amastigotes was more than 208.
Under “mean IC50 against BMDM / mean IC50 against L. major amastigotes”, `CCCCCCCCCCCCCCCCOP(=O)([O-])OCC[N+](C)(C)C` [Miltefosine, 1-hexadecylphosphorylcholine] displayed an SI amastigotes of 1.4.
